Data: article PMC7179434, “1,2,4-Triazolo[1,5-a]pyrimidines as a Novel Class of Inhibitors of the HIV-1 Reverse Transcriptase-Associated Ribonuclease H Activity” (Molecules, 2020)
Some compounds share one wording; it may come from a single statement.

What was measured:
[1] = Mg2+ coordination analysis by UV-Vis spectra; assay type: physicochemical; conditions: 100 µM compound, absence and presence of 6 mM MgCl2
[2] = Intrinsic fluorescence under RNase H assay conditions; conditions: excitation/emission 490/528 nm, RNase H reaction mixture

Row | SMILES | Mg2+ chelation ability (shift of absorbance maximum) [1] | intrinsic fluorescence [2]
1 | Cc1cc(-c2ccccc2)n2nc(NC(=O)c3ccc(O)c(O)c3)nc2n1 [Compound 12g, 3,4-Dihydroxy-N-(5-methyl-7-phenyl-[1,2,4]triazolo[1,5-a]pyrimidin-2-yl)benzamide] | none of the TZP derivatives displayed chelation ability | no significant fluorescence
2 | Cc1cc(-c2ccccc2)nc2nc(NC(=O)c3ccc(O)c(O)c3)nn12 [Compound 13g, 3,4-Dihydroxy-N-(7-methyl-5-phenyl-[1,2,4]triazolo[1,5-a]pyrimidin-2-yl)benzamide] | none of the TZP derivatives displayed chelation ability | no significant fluorescence
3 | Cc1cc(C)n2nc(NC(=O)c3ccc(O)c(O)c3)nc2n1 [Compound 14g, N-(5,7-Dimethyl-[1,2,4]triazolo[1,5-a]pyrimidin-2-yl)-3,4-dihydroxybenzamide] | none of the TZP derivatives displayed chelation ability | no significant fluorescence
4 | O=C(Nc1nc2nc(-c3ccccc3)cc(-c3ccccc3)n2n1)c1ccc(O)c(O)c1 [Compound 15g, N-(5,7-diphenyl-[1,2,4]triazolo[1,5-a]pyrimidin-2-yl)-3,4-dihydroxybenzamide] | none of the TZP derivatives displayed chelation ability | no significant fluorescence
5 | COc1ccc(-c2cc(C)nc3nc(N(C(=O)c4ccccc4)C(=O)c4ccccc4)nn23)cc1OC [Compound 16hh, N-benzoyl-N-(7-(3,4-dimethoxyphenyl)-5-methyl-[1,2,4]triazolo[1,5-a]pyrimidin-2-yl)benzamide] | none of the TZP derivatives displayed chelation ability | –
6 | Cc1cc(-c2ccc(O)c(O)c2)n2nc(NC(=O)c3ccccc3)nc2n1 [Compound 17h, N-(7-(3,4-dihydroxyphenyl)-5-methyl-[1,2,4]triazolo[1,5-a]pyrimidin-2-yl)benzamide] | none of the TZP derivatives displayed chelation ability | no significant fluorescence
7 | Cc1cc(-c2ccccc2)n2nc(C(=O)Nc3ccc(O)c(O)c3)nc2n1 [Compound 18g, N-(3,4-Dihydroxyphenyl)-5-methyl-7-phenyl-[1,2,4]triazolo[1,5-a]pyrimidine-2-carboxamide] | none of the TZP derivatives displayed chelation ability | no significant fluorescence
